Results reported in patent publication US7319086B1, “Method of prophylaxis and treatment and agents useful for same” (priority 1999, dated 2008).

Assay: solid-phase binding of rHA2 to hemin-coated wells
Procedure: FIGS. 3a and 3b are graphical representations showing binding of the HA2 domain to the heme moiety. […] The absence of contaminating protein within 90 μg of the hemin preparation and the absence of non-degraded subunits of hemoglobin remaining after proteinase-K treatment was verified by SDS-PAGE (data not shown). […] Data are representative of two separate experiments.
The ligand-binding protein was then detected with MAb VA1, followed by a goat anti-mouse AP conjugate, and developed as already described for ELISA. Bovine hemoglobin was used in these experiments. Deuteroporphyrin 1X 2,4 bisethylene glycol, deuteroporphyrin 1X dihydrochloride, deuteroporphyrin 1X disulfonic acid dihydrochloride, and dipyrroles tested were obtained from Porphyrin Products, Utah, USA.

rHA2: recombinant HA2 domain of P. gingivalis RgpA expressed in E. coli as a 6x His-tag fusion
Kd (read-out: Kd of rHA2 binding to hemin-coated wells, solid-phase assay): 16 nM
binding to hemin weaker than binding to hemoglobin (solid-phase assays): approximately 8 fold
